A mixed list of measured activities; the numbers were collected in NIAID ChemDB.

All rows: whole-cell or culture tests; species: HIV-1; cells: CEM; measure: EC90

Lines come from different laboratories, so protocols vary. ECn: concentration that inhibits the pathogen or its effect by n%.

compound | strain | read by | result
COc1ccc(S(=O)(=O)N(CC(O)CN(CCc2ccccc2)C(=O)[C@@H](NC(=O)OCc2ccccc2)C(C)C)CC2CCCC2)cc1 | IIIB | p24 | 0.1 µM
CC(C)(C)NC(=O)[C@@H]1C[C@@H]2CCCC[C@@H]2CN1C[C@H](O)[C@@H](CSc1ccccc1)NC(=O)c1cccc2c1CCCN2 | SN 123 | cytopathic effect / XTT | 0.231 µM
CC(C)CN(C[C@@H](O)[C@H](Cc1ccccc1)NC(=O)[C@H](CC(N)=O)NC(=O)c1ccc2ccccc2n1)S(=O)(=O)c1cc(S(=O)(=O)c2ccccc2)cs1 | IIIB | p24 | <0.1 µM
COc1ccc(S(=O)(=O)N(CC2CCCC2)C[C@@H](O)[C@H](Cc2ccccc2)NC(=O)OCc2cccnc2)cc1 | IIIB | p24 | ≤0.1 µM
CC(C)CN(C[C@@H](O)[C@H](Cc1ccccc1)NC(=O)[C@H](CC(N)=O)NC(=O)c1ccc2ccccc2n1)S(=O)(=O)c1ccc(-c2ccccn2)s1 | IIIB | p24 | <0.1 µM
CC(C)CN(C[C@@H](O)CCN(CC1CCCC1)S(=O)(=O)c1ccc(O)cc1)S(=O)(=O)c1ccc(O)cc1 | IIIB | p24 | 0.1 µM
COc1ccc(S(=O)(=O)N(CC2CCCC2)C[C@@H](O)[C@H](Cc2ccccc2)NC(=O)O[C@@H]2CCOC2)cc1 | IIIB | p24 | ≤0.1 µM
CC(=O)Nc1ccc(S(=O)(=O)N(CC(C)C)C[C@@H](O)[C@H](Cc2ccccc2)NC(=O)[C@H](CC(N)=O)NC(=O)c2ccc3ccccc3n2)cc1F | IIIB | p24 | <0.1 µM
Cc1c(O)cccc1C(=O)N[C@@H](CSc1ccccc1)[C@H](O)CN1C[C@H]2SCC[C@H]2C[C@H]1C(=O)NC(C)(C)C | SN 123 | cytopathic effect / XTT | 0.0097 µM
O=C(NC(Cc1ccccc1)C(=O)C(=O)C(=O)N(CC1CCCC1)S(=O)(=O)c1ccccc1)OC1COCOC1 | IIIB | p24 | 1 µM
CC(C)CN(C[C@@H](O)[C@H](Cc1ccccc1)NC(=O)[C@H](CC(N)=O)NC(=O)c1ccc2ccccc2n1)S(=O)(=O)c1cccc2nonc12 | IIIB | p24 | ≤0.1 µM
O=C(c1ccccc1)N(CCc1ccccc1)C[C@H](O)CN(CC1CCCC1)S(=O)(=O)c1nc2ccccc2[nH]1 | IIIB | p24 | 1 µM
CC(C)CN(C[C@@H](O)[C@H](Cc1ccccc1)NC(=O)OC1CCOC1)S(=O)(=O)c1ccc(O)cc1 | IIIB | p24 | ≤0.1 µM
COc1ccc(S(=O)(=O)N(CC(C)C)C[C@@H](O)CCN(CC2CCCC2)S(=O)(=O)Cc2cnco2)cc1 | IIIB | p24 | 1 µM
O=C(N[C@@H](Cc1ccccc1)[C@H](O)CN(CC1CCCC1)S(=O)(=O)c1ccc(O)cc1)O[C@@H]1CCOC1 | IIIB | p24 | ≤0.1 µM

2 of the rows above, restated:

Cc1c(O)cccc1C(=O)N[C@@H](CSc1ccccc1)[C@H](O)CN1C[C@H]2SCC[C@H]2C[C@H]1C(=O)NC(C)(C)C ; strain: SN 123 ; read by: cytopathic effect / XTT ; result: 0.0097 µM
COc1ccc(S(=O)(=O)N(CC2CCCC2)C[C@@H](O)[C@H](Cc2ccccc2)NC(=O)O[C@@H]2CCOC2)cc1 ; strain: IIIB ; read by: p24 ; result: ≤0.1 µM